According to article PMC11944514, “Dengue Virus Inhibitors as Potential Broad-Spectrum Flavivirus Inhibitors” (Pharmaceuticals, 2025):

These compounds were tested on DENV2-Nanoluc. Settings: not given.
Assay type: cell-based

Compound	fold difference of EC50 against DENV2 in Vero E6 versus reported EC50 in BHK-21
CN1C(=O)C2(CC(=O)Nc3c2cnn3Cc2ccc(Cl)cc2)c2cc(Cl)ccc21 (stereo not drawn) [Compound C6, 5-chloro-1′-[(4-chlorophenyl)methyl]-1-methyl-1,1′,2,5′,6′,7′-hexahydrospiro[indole-3,4′-pyrazolo[3,4-b]pyridine]-2,6′-dione]	approximately 600 fold

These compounds were tested on KUNV-Nanoluc. Settings: ratio CC50 / EC50.
Assay type: cell-based

Compound	KUNV SI
O[C@H]1[C@H]2c3cc4c(cc3CN3CCC(=C[C@@H]1O)[C@H]23)OCO4 [Compound C1, (1S,17S,18S,19S)-5,7-dioxa-12-azapentacyclo[10.6.1.0^2,^10.0^4,^8.0^15,^19]nonadeca-2(10),3,8,15-tetraene-17,18-diol]	7.6
CC(C)(C)Oc1cccc2nc(N)nc(N)c12 [Compound C2, 5-(tert-butoxy)quinazoline-2,4-diamine]	1.2
COc1c(C)c2c(c(O)c1CC=C(C)CCC(=O)O)C(=O)OC2 [Compound C3, 6-(4-hydroxy-6-methoxy-7-methyl-3-oxo-1,3-dihydro-2-benzofuran-5-yl)-4-methylhex-4-enoic acid]	>23
O=[N+]([O-])c1c(Nc2ccccc2O)cc(Cl)c2nonc12 [Compound C5, 2-[(7-chloro-4-nitro-2,1,3-benzoxadiazol-5-yl)amino]phenol]	1.4
CN1C(=O)C2(CC(=O)Nc3c2cnn3Cc2ccc(Cl)cc2)c2cc(Cl)ccc21 (stereo not drawn) [Compound C6, 5-chloro-1′-[(4-chlorophenyl)methyl]-1-methyl-1,1′,2,5′,6′,7′-hexahydrospiro[indole-3,4′-pyrazolo[3,4-b]pyridine]-2,6′-dione]	2.4
